# Test results published in PubChem BioAssay AID1822 (The Scripps Research Institute Molecular Screening Center, 2009).
# Only a part is listed here, and it is no random draw. Active and inactive are the calls of the source.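 Rule for the calls: active = inhibition above the campaign mean inhibition over all tested compounds plus 3 SD (cut at about 28% in these data); inactive = the rest.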
# System: M18 aspartyl aminopeptidase (Plasmodium falciparum 3D7)
# Assay: inhibition of P. falciparum M18 aminopeptidase – biochemical, QFRET, recombinant enzyme, primary screen (AID 1822);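 note: 0% = plate median of test compound wells and 100% = 2 mM ZnCl2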
# Settings: recombinant PfM18AAP, H-Glu-NHMec fluorogenic cleavage; at 7.35 µM; active compounds read high
row,SMILES,inhibition
1,CP(=O)(Nc1ccc(Cl)cc1Cl)Oc1ccccc1 (stereo unspecified),inactive: 5.06%
